US20260138988A1, “Spiropyrrolidine Derived Antiviral Agents” (Enanta Pharmaceuticals, Inc., priority 2021, published 2026)

Target: SARS-CoV-2 3CL-protease (Severe acute respiratory syndrome coronavirus 2, UniProt P0DTD1)
Experiment: SARS-CoV-2 3C-Like (3CL) Protease Fluorescence Assay (FRET)
Settings: SARS-CoV-2 3CL-protease 10 nM, test compounds 0-10 μM, duplicate
Method: SARS-CoV-2 3C-Like (3CL) Protease Fluorescence Assay (FRET):
Recombinant SARS-CoV-2 3CL-protease was expressed and purified. TAMRA-SITSAVLQSGFRKMK-Dabcyl-OH peptide 3CLpro substrate was synthesized. Black, low volume, round-bottom, 384 well microplates were used. In a typical assay, 0.85 μL of test compound was dissolved in DMSO then incubated with SARS-CoV-2 3CL-protease (10 nM) in 10 μL assay buffer (50 mM HEPES [pH 7.5], 1 mM DTT, 0.01% BSA, 0.01% Triton-X 100) for 30 min at RT. Next, 10 μL of 3CL-protease substrate (40 μM) in assay buffer was added and the assays were monitored continuously for 1 h in an Envision multimode plate reader operating in fluorescence kinetics mode with excitation at 540 nm and emission at 580 nm at RT. No compound (DMSO only) and no enzyme controls were routinely included in each plate. All experiments were run in duplicate.
Data Analysis: SARS-CoV-2 3CL-protease enzyme activity was measured as initial velocity of the linear phase (RFU/s) and normalized to controlled samples DMSO (100% activity) and no enzyme (0% activity) to determine percent residual activity at various concentrations of test compounds (0-10 μM). Data were fitted to normalized activity (variable slope) versus concentration fit in GraphPad Prism 7 to determine IC50. All experiments were run in duplicate, and IC50 ranges are reported as follows: A<0.1 μM; B 0.1-1 μM; C>1 μM.

C[C@@H]1NC(=O)CCCCc2ccc3c(c2)[C@@]2(C[C@@H](C#N)N(C2)C(=O)[C@H](CC(C)(C)C)NC1=O)C(=O)N3 showed an IC50 of 100 to 1000 nM.
